# In patent EP4341264B1, “PYRROLOPIRIMIDINE DERIVATIVES AND THEIR USE IN THE TREATMENT OF LEISHMANIASIS” (Drugs for Neglected Diseases Initiative, priority 2021, dated 2022):
# Assays:
# [1] = test system: L. donovani (MHOM/ET/67/L82); assay: Intracellular amastigote susceptibility assay (primary peritoneal mouse macrophages); assay type: cell-based; conditions: selectivity index (CC50/IC50)
# Experimental: (§1) To obtain primary peritoneal macrophages, Swiss mice were stimulated by intraperitoneal injection of 1 mL 2% starch in PBS 48 h prior to cell collection. Animals were euthanized with a CO2 overdose and upon removal of the skin, 10 mL of RPMI-1640 (Life Technologies) was injected into the peritoneal cavity to collect the macrophages that were then seeded into 96-well plates at a final concentration of 30,000 cells/well in 100 µL of RPMI-1640 macrophage medium, supplemented with 5% iFCS, 2% penicillin/streptomycin and 1% L-glutamine (Life technologies). After 24 h, the cells were infected with spleen derived L. infantum (MHOM/MA(BE)/67/ITMAP263) or L. donovani (MHOM/ET/67/L82) amastigotes obtained from heavily infected donor hamsters. The amastigotes were purified using two centrifugation steps and diluted to obtain an infection ratio of 5:1 in RPMI-1640 cell culture medium. After incubation for 2 h, compound dilutions were added. Drug activity was evaluated after a 96-h incubation period without washing of the cells and without renewal of the drugged culture medium. Cells were stained with Giemsa for microscopic evaluation of cellular amastigote burdens. Percentage reduction compared to the burdens in the infected non-treated control wells was used as a measure for drug activity.
# [2] = test system: L. infantum (MHOM/MA/67/ITMAP263); assay: as above; assay type: cell-based; conditions: selectivity index (CC50/IC50)
# Experimental: as §1
smiles,measurement,setting,value
"Cc1[nH]c2nc(N)nc(C)c2c1-c1ccc(F)c2c1OCO2 [Compound C2, 5-(7-fluoro-1,3-benzodioxol-4-yl)-4,6-dimethyl-7H-pyrrolo[2,3-d]pyrimidin-2-amine]",SI,[1],>580
same,SI,[2],>310
